Values of other authors as cited in paper PMC10343017.

Protein sequences, listed by entry. Tags and fused reporters are not part of them. Residues count along the entry.
UniProt Q9H6X2, 33-321: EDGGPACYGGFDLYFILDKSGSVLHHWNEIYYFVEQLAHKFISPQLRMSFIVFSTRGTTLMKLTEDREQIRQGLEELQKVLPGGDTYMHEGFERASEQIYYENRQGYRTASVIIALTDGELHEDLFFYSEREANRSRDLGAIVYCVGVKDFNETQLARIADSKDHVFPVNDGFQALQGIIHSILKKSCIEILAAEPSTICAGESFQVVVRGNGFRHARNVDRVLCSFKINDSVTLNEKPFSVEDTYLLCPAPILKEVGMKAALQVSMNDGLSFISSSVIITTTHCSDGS

Molecular target: TEM8 (Homo sapiens) (UniProt Q9H6X2)

protective antigen (from UniProt P13423)
Kd: 1.1 µM
